These are literature values, as cited in PubChem BioAssay AID977608.

What all share (test): protein-ligand inhibition affinities from structures – PDB-derived complexes (AID 977608)
One data set concerns the target SARS-CoV M pro. Particulars: literature IC50, protein: SARS-CoV M pro, chain 2VJ1_B, PDB entry 2VJ1.
In data set [1] the target is heat-labile enterotoxin b chain. Particulars: literature IC50, protein: heat-labile enterotoxin b chain, chain 1EFI_D,1EFI_E, PDB entry 1EFI.
The next data set deals with heat-labile enterotoxin. Particulars: literature IC50, protein: heat-labile enterotoxin, chain 1LT5_D,1LT5_E, PDB entry 1LT5.

With `O=Cc1ccccc1`, the IC50 at SARS-CoV M pro was 5 µM.

For `Nc1ccc(O[C@H]2O[C@H](CO)[C@H](O)[C@H](O)[C@H]2O)cc1`, the IC50 in data set [1] is 12000 µM.

Consider `OC[C@H]1O[C@@H](S[C@@H]2O[C@H](CO)[C@H](O)[C@H](O)[C@H]2O)[C@H](O)[C@@H](O)[C@H]1O`, for which, at heat-labile enterotoxin, the IC50 was 2000 µM.

The IC50 is the midpoint of a concentration-inhibition curve.
